Screening data, single-dose tests

The values are deposited in ChEMBL (CHEMBL3988442, “University of Dundee, Small-Polar-MMV Screening Library” (2021)).

Mtb glucose medium: 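Phenotypic screen: M. tuberculosis growth, glucose 7H9 medium, 3 days; the read-out is not stated. Tested at 50 µM. The record gives no direction; compounds that gave an IC50 in retests scored well above the rest, so higher reads as more growth inhibition. Of about 69,000 compounds tested this way, about 760 (1.1%) reached 50% or more in at least one test.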
Mtb cholesterol medium: 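Phenotypic screen: M. tuberculosis growth, cholesterol and DPPC medium, 4 days; the read-out is not stated. Concentration: 50 µM. Direction is inferred from retests: higher values go with more growth inhibition. Size under these conditions: about 69,000 compounds, about 370 of them at 50% or above in at least one test.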

The filed quantity is “Percent Effect” (%). How 0% and 100% were set is not recorded. Most values in the screen are low, and negative values occur. The entries come from a sample that favours strong results. Two or more numbers in one place are separate tests of the same structure; such repeats can differ widely. A dash means the value is not listed here; it may have been measured.

| structure | Mtb glucose medium | Mtb cholesterol medium |
|---|---|---|
| `Cc1cc(C)c(CNC(=O)NC2COc3ccccc3C2)c(=O)[nH]1` (centres unmarked) | -6.217% | - |
| `CC(C)(C)c1n[nH]cc1CNCC1CCN(C2CC2)C1.Cl` (centres unmarked) | 63.53% and 70.38% | 56.4% |
| `CCN(Cc1cnn(C)c1)C[C@H]1CC[C@@H](Cc2cccc(CN)c2)O1` | - | 51.85% |
| `Cc1ccc(CN2CCCC3(CCN(Cc4ccc(C)o4)C3)C2)o1` (centres unmarked) | -20.63% | - |
| `N#CCCN(C(=O)CN1CCCC1Cc1ccccc1)c1ccccc1` (centres unmarked) | 36.86% | - |
| `O=C(O)C(F)(F)F.[H][C@@]12CCN(Cc3ccc(F)cc3)C[C@]1([H])[C@@H](CNS(C)(=O)=O)OC2` | - | -15.04% |
| `Cc1n[nH]cc1C(=O)N1CCCC(c2cccc(-n3ccnc3)n2)C1` (centres unmarked) | 32.41% | - |
| `Cl.Cl.[H][C@@]12CN(CCc3ccccc3)C[C@]1([H])C2CN` (some centres unmarked) | - | -20.15% |
| `[H][C@@]12CC(C)=CC[C@]1([H])CN(C(=O)c1ccnc(CCC)c1)C2` | 53.7% | - |
| `CC(C)c1cc(=O)[nH]c(C(C)(C)N)n1.Cl` | -12.28% | - |
| `N#Cc1ccc(NC2CCN(c3ncccn3)CC2)cc1C(F)(F)F` | 75.66% | 67.39% |
| `Cc1nn(C)c(C)c1S(=O)(=O)NCCn1ccc(-c2cccs2)n1` | -12.35% | - |
| `CSCCC1c2nc[nH]c2CCN1Cc1[nH]c2ccc(F)cc2c1C` (centres unmarked) | 28.8% and 62.3% | - |
| `Cc1cc(C)n(C2=NC(NCCC(C)C)c3c(sc4c3CCCC4)N2)n1` (centres unmarked) | 4.242% | - |
| `CC(CO)NC(=O)Nc1ccc(CC#N)cc1` (centres unmarked) | 5.733% and 6.187% | 6.282% |
| `Cc1cnn(-c2cccc(N3CCN(c4cc(C)nc(C)n4)CC3)n2)c1` | - | 53.22% |
| `Cn1cnc2cc(C(=O)N3CCC(c4ccccc4C(=O)O)C3)cnc21` (centres unmarked) | -0.8449% and -9.269% | - |
| `Cc1cc(C2CCC2)nc(N(C)Cc2ncccc2C)n1` | -38.76% | - |
| `N#CC1(C(=O)N2CCCN(c3nccs3)CC2)CCCC1` | 28.77% | 2.179% |
| `Cc1cc(NCCCNc2cccnc2)n2nc(C)c(C)c2n1` | -7.875% | 7.988% |
| `N#Cc1ccc(NCCNc2ccc(C(F)(F)F)cn2)nc1` | 25.69% | 32.71% |
| `Cl.NC1CCc2nc(-c3cccnc3)nc(Nc3ccc(F)cc3)c2C1` (centres unmarked) | 77.6% | 55.67% and 72.2% |
| `Cn1cc(-c2cnc(-c3ccnn3C)nc2)cc1C(=O)NC1CC1` | 26.28% | - |
| `O=C(O)C(F)(F)F.[H][C@@]12CN(CC(C)C)C[C@]1([H])C(=O)N(C)C21CCN(C(=O)C(C)C)CC1` | - | 0.667% |
| `COc1cccc(C2CC(=O)Nc3nc(N4CCCCC4)sc32)c1OC` (centres unmarked) | 50.93% | - |
| `Cc1ccc2nnc(C(=O)NCCCn3cccn3)nc2c1` | 54.36% | - |
| `CC1CCN(S(=O)(=O)NC(C)Cc2ccco2)CC1` (centres unmarked) | - | 40.23% |
| `Cc1cnn(C2CCCN(C(=O)c3ccc(N(C)C)nn3)C2)c1` (centres unmarked) | - | -17.76% |
| `COc1ccc(CN2CC[C@@H](O)[C@@H]2Cc2cnn(C)c2)cc1.O=C(O)C(F)(F)F` | - | 50.12% and 42.33% |
| `COc1cccc(-c2cccc(N3CCC(N[C@@H]4CCOC4)CC3)c2)c1` | 57.44% | 47.53% |
| `Fc1cccc(CN2CCC[C@H](Cn3nnc(-c4ccccn4)n3)C2)c1` | 8.117% | -24.66% and -18% |
| `CC(C)COc1ccccc1C(N)CC(C)C` (centres unmarked) | 37.44% and 2.642% | 18.36% |
| `CC(C)Cc1cc(NC(=O)c2ccccc2)n(C)n1` | 52.67% | - |
| `CC(Nc1nc(-c2ccccc2)nc2c1CCNCC2)c1nccs1` (centres unmarked) | 41.12% | - |
| `CN(CCc1ccccn1)Cc1nccn1Cc1ccccc1` | 63.66% | - |
| `c1cc(CCN2CCN(c3ccc4nncn4n3)CC2)ccn1` | 18.57% | - |
| `CC(=O)c1ccc(C(=O)Nc2ccnc(N(C)C)n2)cc1` | - | 54.97% |
| `COC(=O)COc1cc(NCc2c(C)noc2C)c(Cl)cc1C` | 106.6% | 111.6% |
| `COCC1CN(Cc2ccsc2)Cc2cnn(C)c21` (centres unmarked) | 24.23% | - |
| `CC(NC(=O)c1cc(-c2cccc(Cl)c2)no1)C(=O)N1CCCC1` (centres unmarked) | 4.704% and 8.204% | -0.9659% |
| `CN(C)c1nccc(CNC(=O)NC(C)(C)C)n1` | 13.06% | 21.92% |
| `Cc1ccc(CN(C)C(=O)c2cnsn2)cc1` | 54.74% | - |
| `CN1CCC(Cc2cc(Nc3ccccn3)ncn2)CC1` | - | -13.94% |
| `CC(CCc1ccco1)NC(=O)Nc1cc(C(F)(F)F)c[nH]c1=O` (centres unmarked) | 78.27% | 59.33% |
| `O=C(c1cc(-c2ccco2)cs1)N1CCOCC1` | -0.1406% | - |
| `COc1cc2cc(C)c(SCCN3CCCCC3)nc2cc1OC.Cl` | 52.64% | - |
| `COc1cc(C(=O)NCCc2ccccc2OC)on1` | 43.12% and 56.47% | 42.91% |
| `Cc1ccc(C(=O)N2CCN(c3ccnc4ccsc34)CC2)o1` | 35.58% | 6.51% and 10.06% |
| `CC(C)N(Cc1ccc(C#N)cc1)C(=O)Nc1ccccn1` | - | 3.324% |
| `CC(C)Cn1cncc1CNC(=O)c1cccc(CC2CCNCC2)c1` | -27.8% and -2.961% | 4.075% and -11.44% |
| `CCCN(C(=O)c1ccncc1)c1nc2c(s1)CCc1c-2cnn1C` | 50.77% | - |
| `CCNc1cc2c(nn1)CCN(C(=O)C1COc3ccccc3C1)C2` (centres unmarked) | 54.14% | 50.13% |
| `O=C(NCC1(O)COCCN(Cc2cccc(O)c2)C1)c1cscn1` (centres unmarked) | 67.55% | - |
| `COCc1noc(-c2nn(-c3ccc(F)cc3)c3c2CCC3)n1` | 53.84% | - |
| `CO[C@@H]1CCN(c2nnc(C)s2)C[C@@H]1Cc1ccccc1.O=C(O)C(F)(F)F` | 53.46% and 53.06% | 49.55% |
| `CCS(=O)(=O)c1ccc(CNc2c(Cl)cccc2C#N)cc1` | 10.28% | - |
| `CCC1CCCCCN1C(=O)c1coc(S(=O)(=O)N(C)C)c1` (centres unmarked) | 10.76% and 2.213% | - |
| `Cc1ncc(-c2ccnc(N3CCN(C)CC3)n2)c(-c2cccnc2)n1` | -22.71% | - |
| `CC(C)[C@@H]1CN(Cc2cnc(C3CCCCC3)nc2)C[C@H]1N(C)C` | -25.69% | - |
| `CC(NC(=O)CCn1c(=O)oc2ccccc21)c1ccccn1` (centres unmarked) | - | 3.526% and -5.047% |

The first 7 entries again:

structure	Mtb glucose medium	Mtb cholesterol medium
Cc1cc(C)c(CNC(=O)NC2COc3ccccc3C2)c(=O)[nH]1 (centres unmarked)	-6.217%	-
CC(C)(C)c1n[nH]cc1CNCC1CCN(C2CC2)C1.Cl (centres unmarked)	63.53% and 70.38%	56.4%
CCN(Cc1cnn(C)c1)C[C@H]1CC[C@@H](Cc2cccc(CN)c2)O1	-	51.85%
Cc1ccc(CN2CCCC3(CCN(Cc4ccc(C)o4)C3)C2)o1 (centres unmarked)	-20.63%	-
N#CCCN(C(=O)CN1CCCC1Cc1ccccc1)c1ccccc1 (centres unmarked)	36.86%	-
O=C(O)C(F)(F)F.[H][C@@]12CCN(Cc3ccc(F)cc3)C[C@]1([H])[C@@H](CNS(C)(=O)=O)OC2	-	-15.04%
Cc1n[nH]cc1C(=O)N1CCCC(c2cccc(-n3ccnc3)n2)C1 (centres unmarked)	32.41%	-